In ChEMBL document CHEMBL4011590, “Structure-activity relationship studies on 3,5-dinitrophenyl tetrazoles as antitubercular agents” (Eur J Med Chem, 2017) one finds MIC>99 data, which are given here for two molecules.

≈ marks a conversion by molar mass, not a printed value.

Experiment [1] concerns Mycobacterium avium. The experiment in a line: Antimycobacterial activity against Mycobacterium avium CNCTC My 330/80 after 14 days by micromethod. Format: functional.
For experiment [2], the system named is Mycobacterium avium. Description: Antimycobacterial activity against Mycobacterium avium CNCTC My 330/80 after 21 days by micromethod. It counts as functional.

On to `O=[N+]([O-])c1cc(Cn2nnc(-c3cc([N+](=O)[O-])cc([N+](=O)[O-])c3)n2)cc([N+](=O)[O-])c1`, for which the MIC>99 with Mycobacterium avium [1] and against Mycobacterium avium [2] was 4 µM (≈ 1.67 µg/mL) in each case.
As to `O=[N+]([O-])c1ccc(Cn2nnc(-c3cc([N+](=O)[O-])cc([N+](=O)[O-])c3)n2)cc1`, the MIC>99 against Mycobacterium avium [1] and in the experiment with Mycobacterium avium [2] was 4 µM (≈ 1.49 µg/mL) in each case.
